The source of these data is article PMC6222509, “Dibasic Derivatives of Phenylcarbamic Acid against Mycobacterial Strains: Old Drugs and New Tricks?” (Molecules : A Journal of Synthetic Chemistry and Natural …, 2018).

The test system of experiment [1] is M. kansasii 6509/96 clinical isolate (MK 6509/96). Description: microbe, parasite or virus in culture. The settings on record: Mycobacterium kansasii.
The test system is the same in experiment [2].
[3] abbreviates: 168 h, read-out: MIC MK 6509/96 7-d, 7-day cultivation.
[4] abbreviates: 336 h, read-out: MIC MK 6509/96 14-d, 14-day cultivation.
Setting [5] is: 504 h, read-out: MIC MK 6509/96 21-d, 21-day cultivation.
The mark [6] stands for this setting: 168 h, read-out: MIC MK 6509/96 7-d.
Setting [7] is: 336 h, read-out: MIC MK 6509/96 14-d.
Setting [8] is: 504 h, read-out: MIC MK 6509/96 21-d.

In brackets after ≈: the same amount, converted by molar mass. Like-named read-outs stand apart in the source and are kept apart here.

Regarding `CCCCOc1ccccc1NC(=O)OC(CN(CCC)CCC)CN1CCCC1` (stereo not shown) [1a], the results for the MIC in experiment [1] (setting [3]), in experiment [1] (setting [4]) and in experiment [1] (setting [5]) were 32 µM (≈ 13.4 µg/mL), 62.5 µM (≈ 26.2 µg/mL) and 62.5 µM (≈ 26.2 µg/mL), respectively.
In the case of `CCCCCOc1ccccc1NC(=O)OC(CN(CCC)CCC)CN1CCCC1` (stereo not shown) [1b], the values for the MIC in experiment [1] (setting [3]), in experiment [1] (setting [4]) and in experiment [1] (setting [5]) were 32 µM (≈ 13.9 µg/mL), 32 µM (≈ 13.9 µg/mL) and 62.5 µM (≈ 27.1 µg/mL), respectively.
Regarding `CCCCCCOc1ccccc1NC(=O)OC(CN(CCC)CCC)CN1CCCC1` (stereo not shown) [1c], the MIC in experiment [1] (setting [3]), in experiment [1] (setting [4]) and in experiment [1] (setting [5]) was 16 µM (≈ 7.16 µg/mL) in each case.
Regarding `CCCCCCCOc1ccccc1NC(=O)OC(CN(CCC)CCC)CN1CCCC1.Cl.Cl` (stereo not shown) [1d, 1-[2-[({[2-(heptyl-oxy)phenyl]amino}carbonyl)oxy]-3-(dipropylammonio)propyl]pyrrolidinium dichloride], the MIC in experiment [1] (setting [6]) is 8 µM; in experiment [1] (setting [7]), 16 µM; in experiment [1] (setting [8]), 16 µM.
On to `CCCCOc1cccc(NC(=O)OC(CN(CCC)CCC)CN2CCCC2)c1` (stereo not shown) [1e], for which the figures for the MIC in experiment [1] (setting [3]), in experiment [1] (setting [4]) and in experiment [1] (setting [5]) were 16 µM (≈ 6.71 µg/mL), 16 µM (≈ 6.71 µg/mL) and 32 µM (≈ 13.4 µg/mL), respectively.
For `CCCCCOc1cccc(NC(=O)OC(CN(CCC)CCC)CN2CCCC2)c1.Cl.Cl` (stereo not shown) [1f, 1-[2-[({[3-(pentyloxy)phenyl]amino}carbonyl)oxy]-3-(dipropylammonio)propyl]-pyrrolidinium dichloride], the values for the MIC in experiment [1] (setting [6]), in experiment [1] (setting [7]) and in experiment [1] (setting [8]) were 8 µM, 16 µM and 16 µM, respectively.
For `CCCCCCOc1cccc(NC(=O)OC(CN(CCC)CCC)CN2CCCC2)c1` (stereo not shown) [1g], the MIC in experiment [1] (setting [3]) is 8 µM (≈ 3.58 µg/mL); in experiment [1] (setting [4]), 8 µM (≈ 3.58 µg/mL); in experiment [1] (setting [5]), 16 µM (≈ 7.16 µg/mL).
`CCCCCCCOc1cccc(NC(=O)OC(CN(CCC)CCC)CN2CCCC2)c1.Cl.Cl` (stereo not shown) [1h, 1-[2-[({[3-(heptyloxy)phenyl]amino}carbonyl)oxy]-3-(dipropylammonio)propyl]pyrrolidinium dichloride]: the figures for the MIC in experiment [1] (setting [6]), in experiment [1] (setting [7]) and in experiment [1] (setting [8]) were 4 µM, 4 µM and 8 µM, respectively.
Regarding `CCCCOc1ccccc1NC(=O)OC(CN(CCC)CCC)CN1CCCCCC1` (stereo not shown) [1i], the MIC in experiment [1] (setting [3]) worked out at 16 µM (≈ 7.16 µg/mL); in experiment [1] (setting [4]), 32 µM (≈ 14.3 µg/mL); in experiment [1] (setting [5]), 32 µM (≈ 14.3 µg/mL).
`CCCCCOc1ccccc1NC(=O)OC(CN(CCC)CCC)CN1CCCCCC1.O=C(O)C(=O)O` (stereo not shown) [1j, 1-[2-[({[2-(Pentyloxy)phenyl]amino}carbonyl)oxy]-3-(dipropylammonio)propyl]-azepanium oxalate]: the MIC in experiment [1] (setting [6]) was 16 µM; in experiment [1] (setting [7]), 32 µM; in experiment [1] (setting [8]), 32 µM.
`CCCCCCOc1ccccc1NC(=O)OC(CN(CCC)CCC)CN1CCCCCC1` (stereo not shown) [1k]: the MIC was 16 µM (≈ 7.61 µg/mL) in experiment [1] (setting [3]), 32 µM (≈ 15.2 µg/mL) in experiment [1] (setting [4]) and 32 µM (≈ 15.2 µg/mL) in experiment [1] (setting [5]).
For the molecule `CCCCOc1cccc(NC(=O)OC(CN(CCC)CCC)CN2CCCCCC2)c1` (stereo not shown) [1m], the MIC in experiment [1] (setting [3]) stood at 8 µM (≈ 3.58 µg/mL); in experiment [1] (setting [4]) it was 16 µM (≈ 7.16 µg/mL); in experiment [1] (setting [5]) it was 16 µM (≈ 7.16 µg/mL).
For the molecule `CCCCCOc1cccc(NC(=O)OC(CN(CCC)CCC)CN2CCCCCC2)c1.Cl.Cl` (stereo not shown) [1n, 1-[2-[({[3-(pentyloxy)phenyl]amino}carbonyl)oxy]-3-(di-propylammonio)propyl]azepanium dichloride], the values for the MIC in experiment [1] (setting [6]), in experiment [1] (setting [7]) and in experiment [1] (setting [8]) were 4 µM, 8 µM and 8 µM, respectively.
As for `CCCCCCOc1cccc(NC(=O)OC(CN(CCC)CCC)CN2CCCCCC2)c1.Cl.Cl` (stereo not shown) [1o, 1-[2-[({[3-(hexyloxy)phenyl]amino}-carbonyl)oxy]-3-(dipropylammonio)propyl]azepanium dichloride], the figures for the MIC in experiment [1] (setting [6]), in experiment [1] (setting [7]) and in experiment [1] (setting [8]) were 4 µM, 8 µM and 8 µM, respectively.
Turning to `CCCCCCCOc1cccc(NC(=O)OC(CN(CCC)CCC)CN2CCCCCC2)c1.Cl.Cl` (stereo not shown) [1p, 1-[2-[({[3-(heptyloxy)phenyl]amino}carbonyl)-oxy]-3-(dipropylammonio)propyl]azepanium dichloride], the “MIC MK 6509/96 7-d” value in experiment [2] (7-day cultivation) came out at 4 µM. Further, the “MIC MK 6509/96 14-d” value in experiment [2] (14-day cultivation) came out at 8 µM. For the same molecule, in experiment [2] (21-day cultivation), the “MIC MK 6509/96 21-d” value turned out to be 8 µM.
Take `CC[C@@H](CO)NCCN[C@@H](CC)CO` [EMB, ethambutol, reference compound]: the MIC in experiment [1] (setting [3]) was 1 µM (≈ 0.204 µg/mL); in experiment [1] (setting [4]) it was 2 µM (≈ 0.409 µg/mL); in experiment [1] (setting [5]), 2 µM (≈ 0.409 µg/mL).
Consider `NNC(=O)c1ccncc1` [INH, isoniazid, reference compound], for which the MIC in experiment [1] (setting [3]) was 2 µM (≈ 0.274 µg/mL); in experiment [1] (setting [4]), 4 µM (≈ 0.549 µg/mL); in experiment [1] (setting [5]) it was 8 µM (≈ 1.1 µg/mL); in experiment [1] (read-out: MIC MK 6509/96, over 7-d to 21-d cultivation, time not given), 2 to 8 µM (≈ 0.274 to 1.1 µg/mL).
Turning to `CC1COc2c(N3CCN(C)CC3)c(F)cc3c(=O)c(C(=O)O)cn1c23` (stereo not shown) [OFLX, ofloxacin, reference compound], the MIC in experiment [1] (setting [3]) was found to be 0.5 µM (≈ 0.181 µg/mL); in experiment [1] (setting [4]), 0.5 µM (≈ 0.181 µg/mL); in experiment [1] (setting [5]) it was 1 µM (≈ 0.361 µg/mL).
